Pooled drug test results. Numbers come from NIAID ChemDB, via PubChem.

Common to all: growth or infection tests; species: Herpes simplex virus 2; read by: cytopathic effect; measure: EC50

An empty or dashed field is not shown. Lines come from different laboratories, so protocols vary. ECn is the concentration giving n% inhibition of infection, replication or growth.

compound,strain,cells,result
CSc1nnc(-c2ccccc2S(=O)(=O)NC(C)C)o1,G,HEL,>100 µM
CCc1cc([C@H]2C[C@H](O)[C@@H](CO)O2)c(F)cc1F,196,E6SM,>400 µg/mL
NS(=O)(=O)c1ncnc2c1ncn2[C@@H]1O[C@H](CO)[C@@H](O)[C@@H]1O,,,>320 µM
NC(=O)CSc1ncnc2c1cnn2COCC(O)CO,G,E6SM,>400 µg/mL
CCn1cc(C(=O)O)c(=O)c2ccc(C)nc21,UW,HeLa,>250 µg/mL
Nc1nc2c(ncn2C/C=C(/CO)c2ccccc2)c(=O)[nH]1,,CCL18,>100 µg/mL
Nc1nc(N)c2ncn(C[C@H](CF)OCP(=O)(O)O)c2n1,G 196 LYONS,E6SM,>600 µM
COc1ccc2[nH]c3c(c2c1)CCN1OCSCC(N)[C@@H]31,G,PRK,0.02 µg/mL
NC[C@H]1C[C@@H](n2cnc3c(N)ncnc32)[C@H](O)[C@@H]1O,,HFF,27.3 µg/mL
CC(=O)c1ccc(NC(=O)CN2C(=O)c3ccccc3S2(=O)=O)cc1,G,HEL,>100 µM
NS(=O)c1ncnc2c1ncn2[C@H]1C[C@H](O)[C@@H](CO)O1,,,>320 µM
Nc1nc(N)c2ncn(C[C@@H](CO)OCP(=O)(O)O)c2n1,G 196 LYONS,E6SM,1 µM
C/C(=C\Cn1cnc2c(N)ncnc21)CO,,CCL18,>100 µg/mL
Nc1nc2c(ncn2N2C[C@H](CO)[C@H]2CO)c(=O)[nH]1,,VERO,6.32 µg/mL
CON1CCc2c([nH]c3ccccc23)[C@@H]1[C@@H](N)CSC,G,PRK,70 µg/mL
CC(=O)/C=C/[C@]12CC[C@H](OC(C)=O)CC1=CCC1C2CC[C@@]2(C)C1CC[C@@H]2C(C)OC(C)=O,G,BHK-21,3.2 µM
CC=NC(=N)c1nc(-c2cccc(OC)c2)n(C/C=C/c2ccccc2)n1,G,E6SM,>10 µg/mL
CC(C)NS(=O)(=O)c1ccccc1-c1n[nH]c(=S)o1,G,HEL,>100 µM
Nc1ncnc2c1ncn2CC=C(CO)CO,,CCL18,>100 µg/mL
Nc1ncnc2c1ncn2C1CC(COP(=O)(O)O)[C@@H](O)[C@H]1O,,PRK,7 µg/mL
Nc1nc2c(ncn2CC#CCO)c(=O)[nH]1,,,>100 µg/mL
Nc1nc(=O)n(COCCO)cc1[N+](=O)[O-],,PRK,>400 µg/mL
Nc1ncnc2c1ncn2C[C@H]1C[C@H]1CO,,,>100 µg/mL
CC(=O)OCCOCn1cnc2c(Cl)ncnc21,,PRK,70 µg/mL
CS(=O)Cc1cn([C@H]2C[C@H](O)[C@@H](CO)O2)c(=O)[nH]c1=O,LYONS G 196,PRK,>400 µg/mL
OC[C@H]1O[C@@H](c2cc(/C=C/I)c(F)cc2F)C[C@@H]1O,G,E6SM,>400 µg/mL
Nc1nc2c(ncn2COCCO)c(=O)[nH]1,196,PRK,0.02 µg/mL
O=Cc1cn([C@H]2C[C@H](O)[C@@H](CO)O2)c(=O)[nH]c1=O,VCX304,PRK,1 µg/mL
C=C(N=CC)c1nc(-c2cccc(C)c2)n([C@@H]2O[C@H](CO)[C@@H](O)[C@H]2O)n1,G,E6SM,>200 µg/mL
C[C@@H](Cn1cnc2c(=O)[nH]c(N)nc21)OCP(=O)(O)O,G 196 LYONS,E6SM,66 µM
COc1cc2c(cc1OC)[C@@H]1C(N)CSCON1CC2,G,E6SM,0.1 µg/mL
Nc1ncnc2c1ncn2[C@H]1CO[C@H](CO)[C@@H](O)C1,G,E6SM,>20 µg/mL
CC(=O)NS(=O)(=O)c1cc(C)c(NC(=O)CN2C(=O)c3ccccc3S2(=O)=O)cc1C,G,HEL,>100 µM
C[C@H](Cn1cnc2c(=O)[nH]c(N)nc21)OCP(=O)(O)O,G 196 LYONS,E6SM,66 µM
Nc1ncnc2c1ncn2C/C=C\CO,,,>100 µg/mL
CC(=O)[C@H]1CCC2C3CC4CC[C@@]5(CCC(=O)C=C45)C3CC[C@@]21C,G,BHK-21,20.6 µM
O=c1[nH]c(=O)n([C@H]2C[C@H](O)[C@@H](CO)O2)cc1/C=C/Br,LYONS,Primary rabbit kidney cells,1 µg/mL
CO[C@H](CO)[C@@H](O)CCn1cc(C)c(=O)[nH]c1=O,LYONS,E6SM,>400 µg/mL
O=c1[nH]c(=O)n([C@H]2C[C@H](O)[C@@H](CO)O2)cc1I,196,PRK,0.2 µg/mL
O=c1[nH]c(=O)n([C@H]2C[C@H](O)[C@@H](COP(=O)(O)O)O2)cc1/C=C/c1cccc([N+](=O)[O-])c1,LYONS,PRK,>100 µg/mL
[N-]=[N+]=NCc1cn([C@H]2C[C@H](O)[C@@H](CO)O2)c(=O)[nH]c1=O,196,PRK,10 µg/mL
CCCc1cn([C@H]2C[C@H](O)[C@@H](CO)O2)c(=O)[nH]c1=O,196,PRK,5.6 µg/mL
Nc1nc2c(ncn2COCCO)c(=O)[nH]1,MS,MRC-5,2.5 µg/mL
O=c1[nH]cnc2c1ncn2CC=C(CO)CO,,CCL18,>100 µg/mL
O=c1[nH]c(=O)n(COCCO)cc1I,,PRK,>400 µg/mL
CC=NC(=N)c1nc(-c2ccc(OC)cc2)n(Cc2ccccc2)n1,G,E6SM,>40 µg/mL
Nc1nc2c(ncn2COCCO)c(=O)[nH]1,R-324 (acyclovir-resistant),HFF,>50 µg/mL
OC[C@H]1O[C@@H](c2cc(C#CBr)c(F)cc2F)C[C@@H]1O,196,E6SM,>400 µg/mL
O=c1[nH]c(=O)n([C@H]2C[C@H](O)[C@@H](CO)O2)cc1CCCl,MS,HFF,0.38 µM
Nc1nc2c(ncn2[C@@H]2C=C[C@H](CO)[C@@H](O)C2)c(=O)[nH]1,196,E6SM,0.07 µg/mL
CO[C@H](CO)[C@@H](O)CCn1ccc(N)nc1=O,196,E6SM,>400 µg/mL
OC/C(=C/Cn1cnc2c(Cl)ncnc21)c1ccccc1,,CCL18,>100 µg/mL
CC[C@]1(Br)C(=O)NC(=O)N([C@H]2C[C@H](O)[C@@H](CO)O2)[C@@H]1OC,MS,HFF,0.53 µM
Nc1ccn([C@H]2CO[C@H](CO)[C@@H](O)C2)c(=O)n1,G,E6SM,20 µg/mL
CC(Sc1ncnc2c1cnn2COCC(O)CO)C(N)=O,G,E6SM,>400 µg/mL
Nc1ncnc2c1ncn2[C@H]1C[C@@H](CO)[C@H](O)[C@@H]1O,,PRK,>400 µg/mL
O=c1[nH]c(=O)n([C@H]2C[C@H](O)[C@@H](COP(=O)(O)O)O2)cc1/C=C/c1ccccc1,G,PRK,40 µg/mL
Nc1nc(=O)ccn1COCCO,,PRK,>400 µg/mL
Nc1nc2c(ncn2[C@H]2C=C[C@@H](CO)[C@H](O)C2)c(=O)[nH]1,LYONS,E6SM,0.07 µg/mL
O=c1[nH]c(=O)n([C@H]2C[C@H](O)[C@@H](CO)O2)cc1CCCl,196,PRK,1.8 µg/mL
C=C(N=CC)c1nc(-c2ccccc2)n(C2O[C@H](CO)[C@@H](O)[C@H](O)[C@H]2O)n1,G,E6SM,>200 µg/mL
Nc1ncc2ncn(C[C@@H](CF)OCP(=O)(O)O)c2n1,G 196 LYONS,E6SM,>600 µM
C/C(=C\Cn1cnc2c(Cl)ncnc21)CO,,CCL18,>100 µg/mL
NS(=O)(=O)c1ncnc2c1ncn2[C@H]1C[C@H](O)[C@@H](CO)O1,,,>320 µM
CC(Sc1ncnc2c1cnn2CCCCO)C(N)=O,G,E6SM,>400 µg/mL
Nc1ccn(CC[C@H](O)CCO)c(=O)n1,G,E6SM,>400 µg/mL
CSCc1cn([C@H]2C[C@H](O)[C@@H](CO)O2)c(=O)[nH]c1=O,VCX210,PRK,20 µg/mL
Cc1cn([C@@H]2CO[C@H](CO)[C@@H](O)C2)c(=O)[nH]c1=O,G,E6SM,>20 µg/mL
O=c1[nH]c(=O)n([C@H]2C[C@H](O)[C@@H](CO)O2)cc1/C=C/Br,G,PRK,1.4 µg/mL
C[C@H](Cn1cnc2c(N)nc(N)nc21)OCP(=O)(O)O,G 196 LYONS,E6SM,232 µM

Repeating the final 4 entries:

compound,strain,cells,result
CSCc1cn([C@H]2C[C@H](O)[C@@H](CO)O2)c(=O)[nH]c1=O,VCX210,PRK,20 µg/mL
Cc1cn([C@@H]2CO[C@H](CO)[C@@H](O)C2)c(=O)[nH]c1=O,G,E6SM,>20 µg/mL
O=c1[nH]c(=O)n([C@H]2C[C@H](O)[C@@H](CO)O2)cc1/C=C/Br,G,PRK,1.4 µg/mL
C[C@H](Cn1cnc2c(N)nc(N)nc21)OCP(=O)(O)O,G 196 LYONS,E6SM,232 µM